Measurements published in PMC10108740 (Journal of Medicinal Chemistry, 2023).
Like-named read-outs stand apart in the source and are kept apart here.

Key:
[1] = test system: SARS-CoV-2 (WA-1); assay: Antiviral immunofluorescence assay, SARS-CoV-2 WA1 in Vero-TMPRSS2 cells; type: cell-based; conditions: SI = CC50/EC50, Vero-TMPRSS2 cells
[2] = test system: SARS-CoV-2 (WA-1); assay: Antiviral immunofluorescence assay, SARS-CoV-2 WA1 in Huh7.5 cells; type: cell-based; conditions: SI = CC50/EC50, Huh7.5 cells
[3] = test system: SARS-CoV-2 WA1 (USA-WA1/2020); set-up: method as in Schooley et al.[24]; conditions: SI = CC50/EC50, Calu-3 cells, ref Schooley et al.[24]; cited from earlier work
[4] = test system: SARS-CoV-2 (WA-1); assay: Antiviral immunofluorescence assay, SARS-CoV-2 WA1 in human pluripotent stem cell-derived lung cells; type: cell-based; conditions: SI = CC50/EC50, PSC-lung cells
[5] = test system: SARS-CoV-2 WA1 (USA-WA1/2020); assay: Antiviral immunofluorescence assay, SARS-CoV-2 WA1 in Calu-3 cells; type: cell-based; conditions: SI = CC50/EC50, WA1, Calu-3 cells

Compound | SI [1] | SI [2] | SI [3] | SI [4] | SI [5]
CCCCCCCCCCCCCCCCCCOC[C@H](COP(=O)(O)OC[C@H]1O[C@@](C#N)(c2ccc3c(N)ncnn23)[C@H](O)[C@@H]1O)OCc1cccc(F)c1 [Compound 9d, ((2R,3S,4R,5R)-5-(4-Aminopyrrolo[2,1-f][1,2,4]triazin-7-yl)-5-cyano-3,4-dihydroxytetrahydrofuran-2-yl)methyl ((R)-2-((3-fluorobenzyl)oxy)-3-(octadecyloxy)propyl) hydrogen phosphate] | >369 | – | – | – | –
CCCCCCCCCCCCCCCCOC[C@H](COP(=O)(O)OC[C@H]1O[C@@](C#N)(c2ccc3c(N)ncnn23)[C@H](O)[C@@H]1O)OCc1ccccc1 [Compound 11a, ((2R,3S,4R,5R)-5-(4-Aminopyrrolo[2,1-f][1,2,4]triazin-7-yl)-5-cyano-3,4-dihydroxytetrahydrofuran-2-yl)methyl ((R)-2-(benzyloxy)-3-(hexadecyloxy)propyl) hydrogen phosphate] | >248 | >763 | – | – | –
N#C[C@@]1(c2ccc3c(N)ncnn23)O[C@H](CO)[C@@H](O)[C@H]1O [RVn, GS-441524] | – | – | >666 | – | –
CCCCCCCCCCCCCCCCCCOC[C@H](COP(=O)(O)OC[C@H]1O[C@@](C#N)(c2ccc3c(N)ncnn23)[C@H](O)[C@@H]1O)OCc1ccc(OC)c(F)c1 [Compound 9g, ((2R,3S,4R,5R)-5-(4-Aminopyrrolo[2,1-f][1,2,4]triazin-7-yl)-5-cyano-3,4-dihydroxytetrahydrofuran-2-yl)methyl ((R)-2-((3-fluoro-4-methoxybenzyl)oxy)-3-(octadecyloxy)propyl) hydrogen phosphate] | >561 | – | – | >119 | –
CCCCCCCCCCCCCCCCCCOC[C@H](COP(=O)(O)OC[C@H]1O[C@@](C#N)(c2ccc3c(N)ncnn23)[C@H](O)[C@@H]1O)OCc1ccccc1C#N [Compound 9l, ((2R,3S,4R,5R)-5-(4-Aminopyrrolo[2,1-f][1,2,4]triazin-7-yl)-5-cyano-3,4-dihydroxytetrahydrofuran-2-yl)methyl ((R)-2-((2-cyanobenzyl)oxy)-3-(octadecyloxy)propyl) hydrogen phosphate] | – | >980 | – | – | –
CCCCCCCCCCCCCCCCCCOC[C@H](COP(=O)(O)OC[C@H]1O[C@@](C#N)(c2ccc3c(N)ncnn23)[C@H](O)[C@@H]1O)OCCCCCCCC [Compound 9h, ((2R,3S,4R,5R)-5-(4-Aminopyrrolo[2,1-f][1,2,4]triazin-7-yl)-5-cyano-3,4-dihydroxytetrahydrofuran-2-yl)methyl ((R)-3-(octadecyloxy)-2-(octyloxy)propyl) hydrogen phosphate] | >129 | >177 | – | – | >255
CCCCCCCCCCCCCCCCOC[C@H](COP(=O)(O)OC[C@H]1O[C@@](C#N)(c2ccc3c(N)ncnn23)[C@H](O)[C@@H]1O)OCc1ccc(OC)c(F)c1 [Compound 11g, ((2R,3S,4R,5R)-5-(4-Aminopyrrolo[2,1-f][1,2,4]triazin-7-yl)-5-cyano-3,4-dihydroxytetrahydrofuran-2-yl)methyl ((R)-2-((3-fluoro-4-methoxybenzyl)oxy)-3-(hexadecyloxy)propyl) hydrogen phosphate] | >246 | – | – | >153 | –
CCCCCCCCCCCCCCCCCCOC[C@H](COP(=O)(O)OC[C@H]1O[C@@](C#N)(c2ccc3c(N)ncnn23)[C@H](O)[C@@H]1O)OCCC1CCCCC1 [Compound 9i, ((2R,3S,4R,5R)-5-(4-Aminopyrrolo[2,1-f][1,2,4]triazin-7-yl)-5-cyano-3,4-dihydroxytetrahydrofuran-2-yl)methyl ((R)-2-(2-cyclohexylethoxy)-3-(octadecyloxy)propyl) hydrogen phosphate] | >337 | – | – | – | –
CCCCCCCCCCCCCCOC[C@H](COP(=O)(O)OC[C@H]1O[C@@](C#N)(c2ccc3c(N)ncnn23)[C@H](O)[C@@H]1O)OCc1ccccc1 [Compound 12a, ((2R,3S,4R,5R)-5-(4-Aminopyrrolo[2,1-f][1,2,4]triazin-7-yl)-5-cyano-3,4-dihydroxytetrahydrofuran-2-yl)methyl ((R)-2-(benzyloxy)-3-(tetradecyloxy)propyl) hydrogen phosphate] | >110 | >636 | – | – | >469
CCC(CC)COC(=O)[C@H](C)N[P@](=O)(OC[C@H]1O[C@@](C#N)(c2ccc3c(N)ncnn23)[C@H](O)[C@@H]1O)Oc1ccccc1 [RDV, remdesivir] | – | – | >434 | – | –
((2R,3S,4R,5R)-5-(4-Aminopyrrolo[2,1-f][1,2,4]triazin-7-yl)-5-cyano-3,4-dihydroxytetrahydrofuran-2-yl)methyl ((R)-2-(benzyloxy)-7-(tetradec-5-en-1-yloxy)heptyl) hydrogen phosphate [Compound 10a] | >341 | >917 | – | >74 | 410
